Reference: patent publication US20120213805A1 (published 2012)

Biological target: alpha-amanitin-glutarate-huHEA125 conjugate
Test: flow cytometry competition with FITC-labeled antibody on Colo205 cells

B1: epithelial cell adhesion molecule (EpCAM) (other, human, UniProt P16422 24-314, looked up)
chain: QEECVCENYKLAVNCFVNNNRQCQCTSVGAQNTVICSKLAAKCLVMKAEMNGSKLGRRAKPEGALQNNDGLYDPDCDESGLFKAKQCNGTSMCWCVNTAGVRRTDKDTEITCSERVRTYWIIIELKHKAREKPYDSKSLRTALQKEITTRYQLDPKFITSILYENNVITIDLVQNSSQKTQNDVDIADVAYYFEKDVKGESLFHSKKMDLTVNGEQLDLDPGQTLIYYVDEKAPEFSMQGLKAGVIAVIVVVVIAVVAGIVVLVISRKKRMAKYEKAEIKEMGEMHRELNA
notes: whole, on cells; also called CD326; EpCAM antigen
binding result: binds
